Source: article PMC4138406, “In vitro and in vivo anti-malarial activity of limonoids isolated from the residual seed biomass from Carapa guianensis (andiroba) oil production” (Malaria Journal, 2014)

Test system: MRC-5 human fibroblasts
Test: Cytotoxicity assay (AlamarBlue) on MRC-5 human fibroblasts
Format: cell-based
Settings: MRC-5 vs P. falciparum K1
Experimental: The MRC-5 cell line of human fibroblasts was grown in Dulbecco’s Modified Eagle’s Medium (DMEM) supplemented with 10% fetal bovine serum, 2 mM glutamine, 100 μg/mL streptomycin and 100 U/mL penicillin, and incubated at 37°C with a 5% atmosphere of CO2. For assays, the cells were plated in 96-well plates (2.5 × 10^4 cells/well) and the AlamarBlue™ assay was performed using a previously described procedure. After incubation for 24 h, compounds 1-5 were individually dissolved in DMSO and the resulting solutions were diluted in culture medium. The resulting dilute solutions of each sample were added to wells at final (well) concentrations of 1.56-100 μg/mL. Control groups had final well concentrations of 0.1% DMSO. The plates were further incubated for 48 h. 3 h before the end of the incubation period, AlamarBlue™ (10 μL) was added to each well. The fluorescent signal was monitored with a multiplate reader using 530-560 nm excitation and 590 nm emission wavelengths.

| SMILES | SI = IC50 (human fibroblasts)/IC50 (P. falciparum) |
| --- | --- |
| C=C1[C@@H]([C@@]2(C)C=CC(=O)C(C)(C)[C@@H]2CC(=O)OC)CC[C@@]2(C)[C@H](c3ccoc3)OC(=O)[C@H]3O[C@]132 [compound 2, andirobin] | >13 |
| CC1(C)C(=O)C=C[C@@]2(C)C1[C@@H](O)[C@@H](O)[C@]1(C)C2CC[C@@]2(C)[C@H](c3ccoc3)OC(=O)[C@H]3O[C@]321 (stereo partly drawn) [compound 5, 6α-hydroxydeacetylgedunin] | >44 |
